From the supplement of paper PMC9931576
Human monoclonal antibodies against the spike receptor-binding domain (heavy:light variable regions). IC50 against pseudoviruses bearing the spike of naturally observed variants; lower = stronger; >10 µg/ml means not reached at the top dose. No active / inactive call. The stated detection limit is 0.0005 µg/ml; values near or below 0.001 µg/ml lie at the floor of the assay.

B1: BD56-263 (protein)
chain 1: QVQLVQSGAEVKKPGASVKVSCKASGYSFLNYGITWVRQAPGQGLEWMGWISTYNGNTLYAQRYQGRVTMTTDTSTSTAFVELRSLRSDDTAVYFCARRSQIAVVGTWDHSYYGMDVWGQGTTVSVSS
chain 2: SHELTQPPSVSVSPGQTARITCSGDALPKQYGYWYQQKPGQAPVLVMSKDSERPSGIPERFSGSSSGTTVTLTISGVQAEDEADYYCQSADSRGTVFGGGTKLTVL
B2: BD56-216 (protein)
chain 1: QVQLVESEGGVVQPGRSLRLSCAASGFSFSIYAMHWVRQAPDKGLEWVAVISYDGSNKYYADSAKGRFTISRDNSKNTLFLQMNSLRAEDTAVYYCARDSQTLAAALVNSGFDYWGQGTLVTVSS
chain 2: SYVLTQPPSVSVAPGKTARITCGGNSIGSKNVHWYQQKPGQAPVLVIYYDSDRPAGIPERFSGSNSGNTATLTISRVEAGDEADYYCQVWDRGVEFGGGTKLTVL
B3: BD56-220 (protein)
chain 1: EVQLVESGGGLVKPGGSLRLSCAASGFTFSGYSMDWVRQAPGKGLEWVSSISGISNHIYYADSVKGRFTISRDNAKNSMYLQMNSLRTEDTAIYYCARDAGTARVEANSYYGMDVWGQGTTVTVSS
chain 2: SYVLTQPPSVSVTPGQTARITCGGDGIGGKSVHWYQQKPGQAPVLVIYYDRDRPSGIPERFSGSNSGITATLTISRVEAGDEADYYCQVWDSSSHHWVFGGGTKLTVL
B4: BD56-211 (protein)
chain 1: QVQLVESGGGVVQPERSLRLSCAASGFTFSKYAMHWVRQAPGKGLEWVAVIWYDGSNEYYGDSVKGRFTISRDNSKNTLYLQMNSLRAEDTAVYYCAKSGYSYASEDYYFDYWGQGTLVTVSS
chain 2: DIQMTQSPSSLSASVGDRVTITCQASQDISNHLHWYQHKPGKAPKLLIYDASNLETGVPSRFSGSGSGTDFTITISSLQPEDIATYYCQQYVNLPLTFGGGTKVEIK
B5: BD56-330 (protein)
chain 1: EVQLVESGGGVVRPGGSLRLSCAASGFTFADYGIAWVRQVPGKGLEWVAGISWSGANTGHADSVKGRFTISRDNAKNSLYLQMNSLRAEDTAFYHCARVSSINCLVWCAFDIWGQGTMVTVSS
chain 2: EIVMTQSPATLSVSPGERATLSCRASQSVNNKLAWYQQKPGQAPRLLIYGASTRATSIPARFSGSGSGTEFTLTISSLQSEDFAIYYCQQYNNWPPGITFGQGTRLEIK
B6: BD56-213 (protein)
chain 1: EVQLVQSGAEVKKPGESLKISCKGFGYSFISYWTAWVRQRPGKGLEWMGIIYPGDSDTRYSPSFQGQVTISADKSISTAYLQWSSLEASDTAMYYCVRYTSVPNGWFDPWGQGTLVTVSS
chain 2: QSVLTQPPSASGTPGQRVTISCSGSSSNIGTNTVNWYQHLPGTAPKLLIYNNNQRPSGVPDRFSGSKSGTSASLAISGLQSEDEADYYCAAWDDSLSGVFGGGTKLTVL
B7: BD56-232 (protein)
chain 1: EVQLVESGGGLIQPGGSLRLSCAASGIIVNSNYMIWVRQAPGKGLEWVSIIYSGGSTFYSDSVKGRFTISRDSSKNTLYLQMNTLRVEDTAVYYCAREGLTGTTLSFDYWGQGTLVTVSS
chain 2: DIQMTQSPSSLSASVGDRVTFTCRASQSISNSLNWYQQKPGRAPKLLIYAASSLQSGVPSRFSGSGSGTDFTLTISSLHPEDFATYYCQQSFSTPPYTFGQGTKLEIK
B8: DH1154 (protein)
chain 1: EVQLVESGGGLIQPGGSLRLSCAASGFTVSSNYMSWVRQAPGKGLEWVSVIYSGGSTFYADSVKGRFTISRDNSKNTLYLQMNSLGAEDTAVYYCARDLGSRGAFDIWGQGTMVTVSS
chain 2: DIQLTQSPSFLSASVGDRVTITCRASQGISSYLAWYQQKPGKAPKLLIYAASTLQSGVPSRFSGSGSGTEFTLTISSLQPEDFATYYCQQLNSDPVPFGGGTKVEIK
B9: BD56-210 (protein)
chain 1: VQLVQSGAEVKKPGASVKISCKASGYTFSNSYLHWVRQAPGQGLEWMGVINPSAGSTTYARMFQGRVTMTSDTSTSTIYMELSSLRFEDTAVYYCARDLNYIPSFSWFDTWGQGTLVTVSS
chain 2: EIVLTQSPATLSLSPGERATLSCRASQSVSSYVAWYQQKPGQAPRLLIYDASNRATGIPARFSGSGSGTDFTLTISGLEPEDFAVYYCQHRSNWLMYTFGQGTKLEIK
B10: BD56-215 (protein)
chain 1: QVQLVQSGAEVKKPGASVKVSCKASGYTFTSYYMHWVRQAPGQGLEWMGVINPSGGSTRYAQNFLGRVIMTRDTSTSTVYMELSSLRSEDTAMYYCARPNGSPDDYFDYWGLGTLVTVSS
chain 2: SYVLTQPPSVSVAPGKTARITCGGNNIGSKSVHWYQQKPGQAPVLVIYYDSDRPSGIPERFSGSNSGNTATLTISRVEAGDEADYYCQVWDSSSLYVFGTGTRVTVL
B11: BD56-221 (protein)
chain 1: QLQLQESGPGLVKPSETLSLTCTVSGGSISSSNFYWGWIRQPPGKGLEWIGSIYYSGRTYYTPSLKSRVTISVDTSKNQFSLKLSSVTAADTAIYYCARQPRQLSSGWYYYAMDVWGQGTTVAVSS
chain 2: QSALTQPASVSGSPGQSITISCTGTSSDVGSYNLVSWYQQHPGKAPKLLLYEGSKRPSGVSDRFSGSKSGNTASLTISGLQAEDEADYYCCSYAGLWIFGGGTKLTVL
B12: BD56-233 (protein)
chain 1: QVQLEESGGGVVQPGRSLRLSCAASGFRFSSYGMHWVRQAPGKGLEWVAIISHDGSNKYYADSVKGRFTFSRDNSKNTLDLQMNSLRAEDTAVYYCAKETHYYDSSGSYGVGLAFDYWGQGTLVTVSS
chain 2: DIQMTQSPSSLSASVRDRVTITCRASQTISSYLNWYQQKPGKAPKLLIYGASNLQSGVPPRFSGSGSGTEFTLTISSLQPEDFASYYCQQSHSTPRTFGQGTKVEIK

What was measured:
Assay in all cases: pseudovirus neutralization IC50; higher = weaker neutralization
[1] = molecular target: SARS-CoV-2 Omicron BA.1 spike pseudovirus
Protocol: (§1)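 Single-round VSV luciferase pseudovirus mixed with antibody dilutions for 1 h and put on Huh-7 cells for about a day; IC50 from the dose curve.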

[2] = molecular target: SARS-CoV-2 Omicron BA.2 spike pseudovirus
Protocol: as §1

[3] = molecular target: SARS-CoV-2 Omicron BA.2.75 spike pseudovirus
Protocol: as §1

[4] = molecular target: SARS-CoV-2 Omicron BA.5 spike pseudovirus
Protocol: as §1

[5] = molecular target: SARS-CoV-2 Omicron BQ.1.1 spike pseudovirus
Protocol: as §1

[6] = molecular target: SARS-CoV-2 Omicron XBB spike pseudovirus
Protocol: as §1

[7] = molecular target: SARS-CoV-2 early D614G spike pseudovirus
Protocol: as §1

Binder | pseudovirus neutralization IC50 [1] | pseudovirus neutralization IC50 [2] | pseudovirus neutralization IC50 [3] | pseudovirus neutralization IC50 [4] | pseudovirus neutralization IC50 [5] | pseudovirus neutralization IC50 [6] | pseudovirus neutralization IC50 [7]
B1 | 8.23 µg/mL | 6.43 µg/mL | 3.75 µg/mL | > 10 µg/mL | > 10 µg/mL | 7.31 µg/mL | 2.43 µg/mL
B2 | > 10 µg/mL | > 10 µg/mL | > 10 µg/mL | > 10 µg/mL | > 10 µg/mL | > 10 µg/mL | > 10 µg/mL
B3 | 1.37 µg/mL | 2.8 µg/mL | 5.19 µg/mL | 2.5 µg/mL | 4.71 µg/mL | 5.2 µg/mL | 4.91 µg/mL
B4 | > 10 µg/mL | > 10 µg/mL | > 10 µg/mL | > 10 µg/mL | > 10 µg/mL | > 10 µg/mL | > 10 µg/mL
B5 | > 10 µg/mL | > 10 µg/mL | > 10 µg/mL | > 10 µg/mL | > 10 µg/mL | > 10 µg/mL | 1.46 µg/mL
B6 | 0.776 µg/mL | 1.12 µg/mL | 0.948 µg/mL | 0.8 µg/mL | 0.637 µg/mL | 1.69 µg/mL | 1.56 µg/mL
B7 | 0.0688 µg/mL | 0.0496 µg/mL | 0.685 µg/mL | 0.0485 µg/mL | 1.44 µg/mL | 1.92 µg/mL | 0.00976 µg/mL
B8 | > 10 µg/mL | > 10 µg/mL | > 10 µg/mL | > 10 µg/mL | > 10 µg/mL | > 10 µg/mL | 0.0847 µg/mL
B9 | > 10 µg/mL | > 10 µg/mL | > 10 µg/mL | > 10 µg/mL | > 10 µg/mL | > 10 µg/mL | 8.33 µg/mL
B10 | > 10 µg/mL | > 10 µg/mL | > 10 µg/mL | > 10 µg/mL | > 10 µg/mL | > 10 µg/mL | 5.93 µg/mL
B11 | > 10 µg/mL | > 10 µg/mL | > 10 µg/mL | > 10 µg/mL | > 10 µg/mL | > 10 µg/mL | > 10 µg/mL
B12 | 0.0814 µg/mL | 0.117 µg/mL | 0.101 µg/mL | 0.735 µg/mL | > 10 µg/mL | > 10 µg/mL | 0.00335 µg/mL
